# Tested on: Sol g 2 protein
# Assay: Binding assay: gel-filtration (P-2 gel) of crude venom, GC/MS of flow-through
# Set-up: species or system Solenopsis geminata
# Conditions: crude venom after P-2 gel-filtration column
row,Compound,peak area ratios of ligands in flow-through (protein-bound fraction) [%]
1,"CCCCCCCCCCC [undecane, Undecane]",36
2,"CCCCCCCCCC [decane, Decane]",45
3,"CCCCCCCCCCCC [dodecane, Dodecane]",15
4,"CCCCCCCCCCCCC [tridecane, Tridecane]",4

# Source: article PMC10934024, “Protein–Ligand Binding and Structural Modelling Studies of Pheromone-Binding Protein-like Sol g 2.1 from Solenopsis geminata Fire Ant Venom” (Molecules, 2024)
